A mixed list of measured activities; the numbers were collected in NIAID ChemDB.

All rows: growth or infection tests; species: HIV-1; method: cytopathic effect; measure: EC50

ECn is the concentration giving n% inhibition of infection, replication or growth. a–b is a range or a potency band. Blank or dashed fields: not listed here. Lines come from different laboratories, so protocols vary.

smiles | cells | changes | strain | result
Cc1cn([C@H]2C[C@H](F)[C@@H](CO)O2)c(=O)[nH]c1=O | MT-4 |  | IIIB | 0.03 µM
Cc1ccc(C(=O)Nc2ccc(S(=O)(=O)O)c3cc(S(=O)(=O)O)cc(S(=O)(=O)O)c23)cc1NC(=O)c1cccc(NC(=O)Nc2cccc(C(=O)Nc3cc(C(=O)Nc4ccc(S(=O)(=O)O)c5cc(S(=O)(=O)O)cc(S(=O)(=O)O)c45)ccc3C)c2)c1 | HuT-78 |  |  | 18 µM
Nc1ncc2ncn(C[C@H](CF)OCP(=O)(O)O)c2n1 | MT-4 |  | IIIB | >300 µM
CCc1cn([C@H]2C[C@H](F)[C@@H](CO)O2)c(=O)[nH]c1=O | MT-4 |  |  | 330 µM
O=C1c2ccccc2N(Cc2ccccc2)S(=O)(=O)N1Cc1ccccc1Cl | MT-4 |  | IIIB | ≥10 µM
O=C1CSC(c2c(F)cccc2F)N1Cc1ccco1 | MT-4 |  | IIIB | 2.88 µM
O=c1[nH]c(=O)n([C@H]2C[C@H](F)[C@@H](CO)O2)cc1/C=C/Br | MT-4 |  | IIIB | 30 µM
C=Cc1c(C)c2cc3nc(c(CC(=O)O)c4nc(cc5[nH]c(cc1[nH]2)c(C)c5CC)C(C)=C4C(=O)O)C(CCC(=O)O)=C3C | MT-4 |  | LAV | <10 µg/mL
Cc1ccc(C)c(CS(=O)(=O)c2cccc[n+]2[O-])c1 | CEM | RT-Y181C |  | 20 µg/mL
Cc1nc2c(N)ncnc2n1[C@H]1CC[C@@H](CO)O1 | CEM |  |  | >100 µg/mL
COP(=O)(c1cc(C)cc(CCC#N)c1)c1c(C(N)=O)[nH]c2ccc(Cl)c(F)c12 | MT-4 |  | BH10 | 0.0003 µM
Cl.O=C(O)CCC1=C(CC(=O)O)c2cc3nc(cc4[nH]c(cc5[nH]c(cc1n2)c(CC(=O)O)c5CCC(=O)O)c(CC(=O)O)c4CCC(=O)O)C(CC(=O)O)=C3CC(=O)O | MT-4 |  | LAV | <10 µg/mL
CCc1cn([C@H]2C[C@H](N=[N+]=[N-])[C@@H](CO)O2)c(=O)[nH]c1=O | MT-4 |  |  | 64 µM
Nc1ncnc2c1nc(I)n2[C@H]1CC[C@@H](CO)C1 | MT-4 |  | IIIB | >10 µM
O=C1CSC(c2ccc(-c3cccc4ccccc34)cc2)N1Cc1ccco1 | MT-4 |  | IIIB | 5.53 µM
O=c1ccn([C@H]2C[C@H](F)[C@@H](CO)O2)c(=O)[nH]1 | MT-4 |  | IIIB | 0.275 µM
COc1cccc(OC)c1C1SCC(=O)N1c1cc(C)cc(C)n1 | MT-4 |  | IIIB | 1.13 µM
Nc1ncnc2c1ncn2C[C@@H](CO)OCP(=O)(O)O | MT-4 |  | IIIB | >13 µM
C#C[C@@]1(CO)C=C[C@H](n2cc(C)c(=O)[nH]c2=O)O1 | MT-2 |  |  | 0.25 µM
Cc1nc2c(N)ncnc2n1[C@H]1CC[C@@H](CO)C1 | MT-4 |  | IIIB | >10 µM
O=C(O)C1=CC(=C(c2ccc(O)c(C(=O)O)c2)c2ccc(O)c(C(=O)O)c2)C=CC1=O | HuT-78 |  |  | 0.69 µM
Cc1ccnc(N2C(=O)CSC2c2c(F)ccc(C)c2Cl)c1 | MT-4 |  | IIIB | 0.322 µM
C=Cc1c(C)ccc2c1CCC1C(C)(C)[C@@H](O)CC[C@]21C | C8166 |  |  | 57.73 µM
N#Cc1c(SCCCCSc2nsc(-c3ccccc3)c2C#N)nsc1-c1ccccc1 | MT-4 |  | IIIB | >125 µg/mL
CC(CC(F)(F)C(F)(F)C(F)(F)F)(C(=O)OCCOP(=O)(O)O)C(F)(F)C(F)(F)C(F)(F)F | MT-4 |  |  | 9.3 µg/mL
Nc1ncnc2c1nc(-c1ccccc1)n2[C@H]1CC[C@@H](CO)C1 | MT-4 |  | IIIB | >10 µM
Cc1cccc(N2C(=O)CSC2c2c(F)cccc2F)c1 | MT-4 |  | IIIB | 0.688 µM
NC(N)=NCCCNC(=O)c1cc2c(cn1)[nH]c1ccccc12 | MT-4 |  | IIIB | ≥50 µM
O=c1ccn(C[C@H]2CCC[C@H]2CO)c(=O)[nH]1 | CEM |  |  | >100 µg/mL
COC(=O)CCC1=C(C)c2cc3[nH]c(cc4[nH]c(cc5nc(cc1n2)C(C)=C5CCC(=O)OC)c(C)c4CCC(=O)OC)c(CCC(=O)OC)c3C | MT-4 |  | LAV | <10 µg/mL
C[C@@H](Cn1cnc2c(=O)[nH]c(N)nc21)OCP(=O)(O)O | MT-4 |  | IIIB | 27 µM
CC(CC(F)(OC(F)(F)C(F)(OC(F)(F)C(F)(F)C(F)(F)F)C(F)(F)F)C(F)(F)F)(C(=O)OCCOP(=O)(O)O)C(F)(OC(F)(F)C(F)(OC(F)(F)C(F)(F)C(F)(F)F)C(F)(F)F)C(F)(F)F | MT-4 |  |  | 12 µg/mL
O=S1(=O)N=C(OCc2ccc(Cl)cc2)c2ccccc2N1Cc1ccc(Cl)cc1 | MT-4 |  | IIIB | >10 µM
CC(CC(F)(OC(F)(F)C(F)(F)C(F)(F)F)C(F)(F)F)(C(=O)OCCOP(=O)(O)O)C(F)(OC(F)(F)C(F)(F)C(F)(F)F)C(F)(F)F | MT-4 |  |  | 7.7 µg/mL
O=c1[nH]c(=O)n([C@H]2CCC[C@H]2CO)cc1I | CEM |  |  | 12.5 µg/mL
Cc1cn([C@H]2C[C@H](N=[N+]=[N-])[C@@H](CO)O2)c(=O)nc1N | MT-4 |  |  | 1.8 µM
C=Cc1c(C)c2cc3[nH+]c(c4c5[n-]c(cc6[nH+]c(cc1[n-]2)C(C)=C6CC)c(C)c5C(=O)C4C(=O)OC)[C@@H](CCC(=O)O/C=C(\C)CCCC(C)CCCC(C)CCCC(C)C)[C@@H]3C.[Mg+2] | MT-4 |  | LAV | <10 µg/mL
CCOC(=O)Sc1nsc(-c2ccccc2)c1C#N | MT-4 |  | IIIB | 15.2 µg/mL
O=c1ccn([C@H]2CCC[C@H]2CO)c(=O)[nH]1 | CEM |  |  | >100 µg/mL
Nc1ncnc2c1ncn2C1CC(CO)(CO)C1 | MT-2 |  | IIIB | >200 µM
CCC1=C(C)c2cc3nc(cc4cc(C)c(cc5[nH]c(cc1n2)c(C)c5CC)[nH]4)C(CCC(=O)O)=C3C | MT-4 |  | LAV | <10 µg/mL
O=C1c2ccccc2N(Cc2ccccc2Cl)S(=O)(=O)N1Cc1ccccc1Cl | MT-4 |  | IIIB | ≥2 µM
CC1=CC[C@@H]([C@@H](C)[C@H]2CC[C@@]3(C)[C@@H]4[C@@H](O)C[C@H]5C(C)(C)OC(=O)C=C[C@@]56C[C@@]46CC[C@]23C)OC1=O | C8166 |  |  | 8.79 µg/mL
Nc1ncnc2c1ncn2C1CCC1 | MT-2 |  | IIIB | >200 µM
Nc1nc(N)c2ncn(C[C@H](CO)OCP(=O)(O)O)c2n1 | MT-4 |  | IIIB | 25 µM
Cc1ccc(C)c(CS(=O)c2ccc(Cl)c[n+]2[O-])c1 | CEM | RT-Y181C |  | 9.4 µg/mL
C[C@@H](Cn1cnc2c(N)nc(N)nc21)OCP(=O)(O)O | MT-4 |  | IIIB | 7.4 µM
Cc1nc(C(=O)NCCCN)cc2c1[nH]c1ccccc12 | MT-4 |  | IIIB | >100 µM
Cc1cn([C@H]2C[C@H](F)[C@@H](CO)O2)c(=O)nc1NO | MT-4 |  | IIIB | 110 µM
Nc1nc2c(ncn2C[C@H](CF)OCP(=O)(O)O)c(=O)[nH]1 | MT-4 |  | IIIB | 5.9 µM
Cc1ccnc2c1NC(=O)c1cccnc1N2C1CC1 | MT-4 |  | IIIB | 0.014 µg/mL
c1ccc(C2SCc3nc4ccccc4n32)cc1 | MT-4 |  | IIIB | 0.35 µM
Nc1ncnc2c1nc(Br)n2[C@H]1CC[C@@H](CO)C1 | MT-4 |  | IIIB | >10 µM
COc1cccc(F)c1C1SCC(=O)N1c1cccc(C)c1 | MT-4 |  | IIIB | 1.16 µM
Nc1nc(=O)n(CCN2C(=O)CSC2COc2ccccc2)cc1F | MT-4 |  |  | 1–10 µM
COc1cccc(OC)c1C1SCC(=O)N1c1cccc(C)n1 | MT-4 |  | IIIB | 1.36 µM
Nc1nc2c(ncn2[C@H]2C[C@H](F)[C@@H](CO)O2)c(=O)[nH]1 | MT-4 |  | IIIB | 2.4 µM
Cc1cc(C)nc(N2C(=O)CSC2c2c(F)cccc2F)c1 | MT-4 |  | IIIB | 0.09 µM
O=C(O)CN(CCOCCOCCN1CC2c3cc4c5c6c3-c3c(cc7c8c3C63CN(CCOCCOCCN(CC(=O)O)CC(=O)O)CC36c3c-5c(cc5ccc9cc(c-8c6c9c35)C7)C4)C2C1)CC(=O)O | CEM |  | IIIB | >4 µM
CCc1c(C)c2cc3[nH]c(cc4nc(c(C)c5nc(cc1[nH]2)C(C)=C5)C(CCC(=O)O)=C4C)c(C)c3CC | MT-4 |  | LAV | <10 µg/mL

The first 6 rows once more:

smiles,cells,changes,strain,result
Cc1cn([C@H]2C[C@H](F)[C@@H](CO)O2)c(=O)[nH]c1=O,MT-4,,IIIB,0.03 µM
Cc1ccc(C(=O)Nc2ccc(S(=O)(=O)O)c3cc(S(=O)(=O)O)cc(S(=O)(=O)O)c23)cc1NC(=O)c1cccc(NC(=O)Nc2cccc(C(=O)Nc3cc(C(=O)Nc4ccc(S(=O)(=O)O)c5cc(S(=O)(=O)O)cc(S(=O)(=O)O)c45)ccc3C)c2)c1,HuT-78,,,18 µM
Nc1ncc2ncn(C[C@H](CF)OCP(=O)(O)O)c2n1,MT-4,,IIIB,>300 µM
CCc1cn([C@H]2C[C@H](F)[C@@H](CO)O2)c(=O)[nH]c1=O,MT-4,,,330 µM
O=C1c2ccccc2N(Cc2ccccc2)S(=O)(=O)N1Cc1ccccc1Cl,MT-4,,IIIB,≥10 µM
O=C1CSC(c2c(F)cccc2F)N1Cc1ccco1,MT-4,,IIIB,2.88 µM